Test results: publication PMC11879855, “Structural insights into tecovirimat antiviral activity and poxvirus resistance” (2025)

How the values were obtained:
[1] = system: VACV; conditions: cited from earlier work
[2] = system: MPXV clade IIb strain MPXV/2022/FR/CMIP; assay: MPXV plaque inhibition (neutralization) assay in Vero cells; conditions: read-out: IC50 (plaque inhibition of MPXV); Vero cells infected with MPXV clade IIb
[3] = system: MPXV clade IIb strain MPXV/2022/FR/CMIP
[4] = read-out: EC50(VACV), inhibits 50% of virus-induced cytopathic effects

O=C(NN1C(=O)[C@@H]2[C@@H]3C=C[C@@H]([C@H]4C[C@@H]34)[C@@H]2C1=O)c1ccccc1Br
pEC50 [1, 4]: 5.64

O=C(NN1C(=O)[C@@H]2[C@@H]3C=C[C@@H]([C@H]4C[C@@H]34)[C@@H]2C1=O)c1ccccc1Cl
pEC50 [1, 4]: 5.52

Cc1cc(C(=O)NN2C(=O)[C@@H]3[C@@H]4C=C[C@@H]([C@H]5C[C@@H]45)[C@@H]3C2=O)n[nH]1
pEC50 [1, 4]: 5.15

Nc1ccc(C(=O)NN2C(=O)[C@@H]3[C@@H]4C=C[C@@H]([C@H]5C[C@@H]45)[C@@H]3C2=O)cc1
pEC50 [1, 4]: 5.11

O=C(NN1C(=O)[C@@H]2[C@@H]3C=C[C@@H]([C@H]4C[C@@H]34)[C@@H]2C1=O)c1ccncc1
pEC50 [1, 4]: 6.30

O=C(NN1C(=O)[C@@H]2[C@@H]3C=C[C@@H]([C@H]4C[C@@H]34)[C@@H]2C1=O)c1ccc([N+](=O)[O-])cc1
pEC50 [1, 4]: 7.70

Cn1cccc1C(=O)NN1C(=O)[C@@H]2[C@@H]3C=C[C@@H]([C@H]4C[C@@H]34)[C@@H]2C1=O
pEC50 [1, 4]: 4.80

N1-isonicotinoly-N2-3-methyl-4-chlorobenzoylhydrazine
pIC50 [2]: 7.13

O=C(NN1C(=O)[C@@H]2[C@@H]3C=C[C@@H]([C@H]4C[C@@H]34)[C@@H]2C1=O)c1ccc(C(F)(F)F)cc1
pIC50 [3]: 7.77 | pEC50 [1]: 7.40

pEC50, pIC50: −log10 of the molar value. Read-outs that look alike come from different tables or passages of the source.
